Patent US20230105082A1, “ANTIMICROBIAL COMPOSITIONS FOR PET FOOD PRODUCTS” (priority 2020, published 2023)

Assays:
[1] = tested on: dogs; assay: Two-bowl palatability test, dogs; assay type: in vivo, dog; conditions: versus Control Diet
[2] = tested on: cats; assay: Two-bowl palatability test, cats; assay type: in vivo, cat; conditions: versus Control Diet
[3] = 1000 ppm in fat coated on kibble
[4] = 500 ppm in fat coated on kibble

SMILES | DOG % A (consumption ratio of Food A) [1, 3] | CAT % A (consumption ratio of Food A) [2, 3] | DOG % A (consumption ratio of Food A) [1, 4] | CAT % A (consumption ratio of Food A) [2, 4]
O=P(O)(O)O [Composition 1, Phosphoric acid] | 71% | 49% | – | –
CCCC(=O)O [Composition 2, Butyric acid] | – | – | 18% | 55%
CC(O)C(=O)O (stereo not shown) [Composition 4, Lactic acid] | – | – | 32% | 42%
CCCCC(=O)O [Composition 3, Valeric acid] | – | – | 28% | –
